Results deposited as PubChem BioAssay AID504761 (Drosophila RNAi Screening Center, 2011)
The deposit covers about 22,000 reagents; shown is an unselected part of those with a known target gene and a result. In the full data, 116 (0.52%) are marked active. 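Calls depend on retest data that are not deposited; infection was ranked per plate without normalising between plates; the unit of the infection score is not given.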 The raw values are shown without normalisation. No sequences are given here. The record does not give: the amount of reagent, the time to read-out.

- Purpose: 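Insect host genes that dengue virus relies on to spread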 (primary screen)
- Cell system: D.Mel-2 cells from Drosophila
- Reagents: long dsRNA against Drosophila genes
- Treatment: infection with dengue virus type 2; dose and infection time not stated
- Measured: 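Per well on two replicate plates, imaging gave the percent of cells positive for viral envelope protein, ranked by infection, and a nuclear count of cells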
- Scale: infection score: higher = more virus-infected cells; cell count: higher = more cells in the well
- Call rule: 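Low infection ranks in the two replicates (chance level up to 0.065) followed by a retest with a 1.5-fold or larger significant decrease, p below 0.05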
- Calls: active = confirmed: knock-down lowers infection; inactive = not picked or not confirmed

target | dsRNA | infection score, replicate 1 | infection score, replicate 2 | cell count, replicate 1 | cell count, replicate 2 | Outcome
CG1161 | DRSC24956 | 1.64 | 2.44 | 6280 | 6231 | inactive
FoxK (Forkhead box K) | DRSC24971 | 9.02 | 2.49 | 6356 | 6465 | inactive
PH4alphaEFB (prolyl-4-hydroxylase-alpha EFB) | DRSC14473 | 20.3 | 9.12 | 5824 | 6044 | inactive
PH4alphaEFB (prolyl-4-hydroxylase-alpha EFB) | DRSC14950 | 6.65 | 3.99 | 5791 | 5516 | inactive
kto (kohtalo) | DRSC10983 | 3.9 | 11.5 | 6721 | 6071 | inactive
Plap (Phospholipase A2 activator protein) | DRSC00678 | 0.81 | 5.09 | 6659 | 6320 | inactive
CG13751 | DRSC06422 | 21.5 | 19.8 | 6231 | 4030 | inactive
CG32813 | DRSC17948 | 1.19 | 5.4 | 6454 | 5551 | inactive
CG32813 | DRSC24734 | 6.32 | 11.5 | 6776 | 5355 | inactive
CG1299 | DRSC08300 | 3.94 | 4.76 | 5839 | 5320 | inactive
modSP (modular serine protease) | DRSC16726 | 15.3 | 7.41 | 6863 | 6964 | inactive
modSP (modular serine protease) | DRSC16857 | 2.46 | 11.7 | 6669 | 3919 | inactive
modSP (modular serine protease) | DRSC21489 | 3 | 10.7 | 5708 | 6192 | inactive
Alp7 (Alkaline phosphatase 7) | DRSC04355 | 14.1 | 19.6 | 6524 | 5832 | inactive
Alp7 (Alkaline phosphatase 7) | DRSC27071 | 12.7 | 8.71 | 6025 | 6738 | inactive
CG17666 | DRSC10276 | 0.73 | 2.74 | 5785 | 6101 | inactive
CG17666 | DRSC26761 | 13.8 | 2.66 | 5999 | 6500 | inactive
Rab23 | DRSC12305 | 3.57 | 6.29 | 6465 | 6101 | inactive
Rab23 | DRSC25339 | 3.83 | 5.81 | 5879 | 6631 | inactive
Blm (Bloom syndrome helicase) | DRSC16911 | 23.4 | 28.6 | 5755 | 5947 | inactive
Rpn13R (Regulatory particle non-ATPase 13-related) | DRSC18404 | 1.57 | 1.05 | 6165 | 6487 | inactive
Rpn13R (Regulatory particle non-ATPase 13-related) | DRSC23628 | 8.58 | 4.36 | 5735 | 6240 | inactive
l(1)G0020 (lethal (1) G0020) | DRSC18198 | 11.8 | 6.08 | 5442 | 5392 | inactive
mRpS18B (mitochondrial ribosomal protein S18B) | DRSC02107 | 8.8 | 12.4 | 5861 | 379 | inactive
nonC (no-on-and-no-off transient C) | DRSC18366 | 31.3 | 4.09 | 5657 | 6584 | inactive
nonC (no-on-and-no-off transient C) | DRSC18367 | 4.24 | 5.63 | 6059 | 6378 | inactive
CG4892 | DRSC01937 | 5.43 | 1.51 | 1031 | 7087 | inactive
CG31676 | DRSC02387 | 6.45 | 2.43 | 5919 | 6639 | inactive
Tsp96F (Tetraspanin 96F) | DRSC14147 | 2.49 | 3.93 | 6717 | 6695 | inactive
CG31386 (retired record) | DRSC23186 | 0.4 | 6.94 | 6191 | 6961 | inactive
CG31386 (retired record) | DRSC25849 | 1.01 | 3.72 | 6346 | 5733 | inactive
CG10916 | DRSC06012 | 15.5 | 13 | 5688 | 4227 | inactive
ms(3)K81 (male sterile (3) K81) | DRSC14746 | – | 7.96 | 325 | 5274 | inactive
Tap42 (Two A-associated protein of 42kDa) | DRSC02967 | 4.8 | 5.14 | 6057 | 6172 | inactive
Tap42 (Two A-associated protein of 42kDa) | DRSC24168 | 3.64 | 2.92 | 6133 | 5861 | inactive
Pgk (Phosphoglycerate kinase) | DRSC23340 | 0.83 | 2.4 | 6632 | 6791 | inactive
Pgk (Phosphoglycerate kinase) | DRSC26595 | 4.85 | 2.27 | 5871 | 5678 | inactive
Mabi (Mabiki) | DRSC02489 | 4.92 | 12.9 | 6462 | 6651 | inactive
Mabi (Mabiki) | DRSC29933 | 9.93 | 4.56 | 5611 | 5239 | inactive
CG13048 | DRSC09929 | 1.08 | 1.59 | 6139 | 6279 | inactive
CG13048 | DRSC26938 | 11.4 | 3.73 | 5808 | 5899 | inactive
CG42500 | DRSC14822 | 8.87 | 5.03 | 5703 | 6044 | inactive
Rpe (Ribulose-5-phosphate-3-epimerase) | DRSC06407 | 26.1 | 50.4 | 6522 | 5236 | inactive
Tehao | DRSC03449 | 2.23 | 2.57 | 6598 | 6542 | inactive
Mtpalpha (Mitochondrial trifunctional protein alpha subunit) | DRSC01994 | 13.8 | 6.14 | 6081 | 6075 | inactive
CG2533 | DRSC19855 | 13.9 | 23.6 | 4889 | 4998 | inactive
CG2533 | DRSC28777 | 17.8 | 7.07 | 5041 | 1952 | inactive
HP1c (Heterochromatin Protein 1c) | DRSC16166 | 6.26 | 4 | 6601 | 150 | inactive
HP1c (Heterochromatin Protein 1c) | DRSC28423 | 7.15 | 4.87 | 3860 | 4931 | active
Larp4B (La-related protein 4B) | DRSC23201 | 4.24 | 35.4 | 6292 | 6143 | inactive
Larp4B (La-related protein 4B) | DRSC29411 | 1.08 | 1.85 | 557 | 595 | inactive
Lcp65Ae | DRSC11212 | 3.63 | 4.83 | 6400 | 5713 | inactive
CG14402 | DRSC02386 | 4.03 | 2.58 | 1538 | 7223 | inactive
CG17834 | DRSC02637 | 5.54 | 15.3 | 6385 | 5641 | inactive
CG17834 | DRSC26694 | 0.77 | 7.27 | 6504 | 5118 | inactive
wnd (wallenda) | DRSC11046 | 4.35 | 11.2 | 6367 | 7031 | inactive
wnd (wallenda) | DRSC21373 | 1.94 | 2.27 | 6129 | 6401 | inactive
CG5435 | DRSC02860 | 1.7 | 1.25 | 5899 | 6085 | inactive
